The values below come from patent publication US20110045139A1, “FERMENTED SAUSAGE AND METHODS OF MAKING SAME” (priority 2009, published 2011).

The structures appear in SMILES notation.

The data set deals with extracellular and intracellular fractions of E. coli O157:H7, S. carnosus and P. pentosaceus. Description: Evaluation of extra- and intracellular enzymatic activity on sinalbin. The class given is biochemical. The settings on record: sinalbin 0.5 mg/ml, 6 days.

With `O=S(=O)(O)O/N=C(/Cc1ccc(O)cc1)S[C@@H]1O[C@H](CO)[C@@H](O)[C@H](O)[C@H]1O` [sinalbin], the “sinalbin degradation by extracellular culture filtrates” value (culture supernatant) is “no extracellular myrosinase-like activity was found”. Also, the “sinalbin degradation by intracellular bacterial fractions” value (sonicated cells) is reported as “intracellular enzymatic activity capable of degrading sinalbin”.
